These results are taken from patent US20220047701A1, “COMBINATION OF HER2/NEU ANTIBODY WITH HEME FOR TREATING CANCER” (INSERM (Institut National de la Santé et de la Recherche …, priority 2018, published 2022).

The assay has as its system Lysates of Bacillus anthracis or human umbilical vein endothelial cells (HUVEC). Type of assay: binding. Particulars: Trastuzumab 0.2 μM, heme 0.15-20 μM.

In the case of “heme-exposed Trastuzumab: Trastuzumab pre-treated with heme; elutes as monomeric and oligomeric species”, the “binding to bacterial and autoantigens” value was “concentration-dependent increase of binding”.
